According to PubChem BioAssay AID504753 (Sanford-Burnham Center for Chemical Genomics, 2011):
Only a part is listed here, and it is no random draw. Active and inactive are the calls of the source.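 The calls were made as follows: active = inhibition of at least 50% at 20 µM in any single replicate; inactive = the rest.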

Each compound was assayed on glucose-6-phosphate dehydrogenase-6-phosphogluconolactonase (PfGluPho), Plasmodium falciparum 3D7 (assay: PfG6PD inhibitors, hit retest, confirmation, biochemical, fluorescence intensity, single concentration (AID 504753;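 also: 0% = DMSO with substrate and 100% = DMSO lacking glucose-6-phosphate substrate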)). Conditions: recombinant PfGluPho, NADPH-diaphorase-resazurin fluorescence; at 20 µM; active compounds read high.

SMILES | inhibition
O=[N+]([O-])c1cc([N+](=O)[O-])c(Nc2ccccn2)c([N+](=O)[O-])c1 | active: 78.8%
